The target of this test is SARS-CoV-2 M^Pro (Severe acute respiratory syndrome coronavirus 2, UniProt P0DTD1). As to the kind of experiment: M^Pro inhibition assay (fluorogenic peptide substrate, 1 h preincubation). Type of test: biochemical.

On to `Cc1[nH]c(=O)n(-c2cncc3ccccc23)c(=O)c1-n1nnc2ccccc21`, for which the IC50 (commonly the concentration that inhibits the measured activity by half) is 7.4 µM.

These data come from article PMC12017303 (Science Advances, 2025).
